Data published in paper PMC6630443 (Viruses, 2019).

Columns and labels:
[1] = test system: USUV; settings: Vero cells treated with 800 µM drug; cited from earlier work
[2] = test system: USUV; assay: Antiviral activity (virus titer, TCID50) in lytically-infected Vero cells; format: cell-based, Usutu virus
[3] = test system: USUV; assay: Antiviral activity (virus titer, TCID50) in persistently-infected V p39 cells; format: cell-based, Usutu virus
[4] = test system: USUV; assay: Antiviral activity (virus titer, TCID50) in persistently-infected S p39 cells; format: cell-based, Usutu virus

SMILES	USUV titers over five consecutive lytic passages [1]	Selectivity Index [2]	Selectivity Index [3]	Selectivity Index [4]
Oc1ncc(F)c(O)n1 [5-Fluorouracil, 2,4-dihydroxy-5-fluoropyrimidine]	reduced USUV titers	–	–	–
NC(=O)c1nc(F)cnc1O [Favipiravir, 6-fluoro-3-hydroxy-2-pyrazinecarboxamide]	reduced USUV titers	> 6.3	> 10.2	> 8.3
NC(=O)c1ncn([C@@H]2O[C@H](CO)[C@@H](O)[C@H]2O)n1 [Ribavirin, 1-(β-D-Ribofuranosyl)-1H-1,2,4-triazole-3-carboxamide]	reduced USUV titers	–	> 28.2	> 25
